HIV-1 5' UTR: DMS reactivities by position

The 5' region of HIV-1 NL4-3 RNA (positions 1-437):
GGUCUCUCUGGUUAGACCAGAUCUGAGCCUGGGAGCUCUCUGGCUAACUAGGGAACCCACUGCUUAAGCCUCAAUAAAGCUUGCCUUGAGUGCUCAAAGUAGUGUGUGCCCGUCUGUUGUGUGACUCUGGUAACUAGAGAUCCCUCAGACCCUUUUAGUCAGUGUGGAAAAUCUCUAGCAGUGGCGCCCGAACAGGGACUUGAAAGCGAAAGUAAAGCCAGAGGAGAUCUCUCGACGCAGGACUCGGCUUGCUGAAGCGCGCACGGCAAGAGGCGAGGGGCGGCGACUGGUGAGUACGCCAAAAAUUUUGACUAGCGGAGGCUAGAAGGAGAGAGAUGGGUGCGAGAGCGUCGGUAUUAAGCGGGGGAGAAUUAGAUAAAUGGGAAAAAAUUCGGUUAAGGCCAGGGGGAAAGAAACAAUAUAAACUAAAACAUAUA

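Randomly mutated transcripts starting with one, two or three G (1G, 2G, 3G), capped or uncapped, were folded for 30 min at 37 °C. High salt was 300 mM KCl and 5 mM MgCl2, low salt 40 mM KCl and 0.1 mM MgCl2; monomer and dimer were parted on a native gel. Gel slices were treated with 170 mM dimethyl sulfate for 15 min at 37 °C and read by mutational profiling against an ethanol control.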

Scale: normalised reactivity, A and C only; low values point to paired or protected bases, higher values to unpaired ones. One numbering serves 1G, 2G and 3G. A position is written with its base.

{"position": "C23", "domain": "TAR", "1G capped high-salt monomer": 1.26, "3G capped high-salt monomer": 1.44}
{"position": "A34", "domain": "TAR", "1G capped high-salt monomer": 1.08, "3G capped high-salt monomer": 1.21}
{"position": "C40", "domain": "TAR", "1G capped high-salt monomer": 0.04, "3G capped high-salt monomer": 0.02}
{"position": "A50", "domain": "TAR", "1G capped high-salt monomer": 0.19, "3G capped high-salt monomer": 0.11}
{"position": "C56", "domain": "TAR", "1G capped high-salt monomer": 0.19, "3G capped high-salt monomer": 0.02}
{"position": "C85", "domain": "PolyA", "1G capped high-salt monomer": 0.34, "3G capped high-salt monomer": 0.16}
{"position": "A98", "domain": "PolyA", "1G capped high-salt monomer": 0.37, "3G capped high-salt monomer": 0.63}
{"position": "C127", "domain": "PAS", "1G capped high-salt monomer": 0.04, "3G capped high-salt monomer": 0.02}
{"position": "A138", "domain": "PBS", "1G capped high-salt monomer": 0.13, "3G capped high-salt monomer": 0.11}
{"position": "C152", "domain": "PBS", "1G capped high-salt monomer": 0.85, "3G capped high-salt monomer": 0.89}
{"position": "C160", "domain": "PBS", "1G capped high-salt monomer": 0.05, "3G capped high-salt monomer": 0.06}
{"position": "A169", "domain": "PBS", "1G capped high-salt monomer": 0.72, "3G capped high-salt monomer": 0.76}
{"position": "A170", "domain": "PBS", "1G capped high-salt monomer": 0.56, "3G capped high-salt monomer": 0.53}
{"position": "A171", "domain": "PBS", "1G capped high-salt monomer": 0.47, "3G capped high-salt monomer": 0.44}
{"position": "A180", "domain": "PBS", "1G capped high-salt monomer": 0.54, "3G capped high-salt monomer": 0.64}
{"position": "C189", "domain": "PBS", "1G capped high-salt monomer": 0.11, "3G capped high-salt monomer": 0.08}
{"position": "A198", "domain": "PBS", "1G capped high-salt monomer": 0.59, "3G capped high-salt monomer": 0.58}
{"position": "C229", "domain": "CU", "1G capped high-salt monomer": 0.21, "3G capped high-salt monomer": 0.33}
{"position": "C238", "domain": "none", "1G capped high-salt monomer": 0.69, "3G capped high-salt monomer": 0.80}
{"position": "C260", "domain": "SL1", "1G capped high-salt monomer": 0.50, "3G capped high-salt monomer": 0.45}
{"position": "A293", "domain": "SL2", "1G capped high-salt monomer": 0.80, "3G capped high-salt monomer": 0.68}
{"position": "A296", "domain": "SL2", "1G capped high-salt monomer": 0.58, "3G capped high-salt monomer": 0.58}
{"position": "A305", "domain": "none", "1G capped high-salt monomer": 0.74, "3G capped high-salt monomer": 0.73}
{"position": "C316", "domain": "SL3", "1G capped high-salt monomer": 0.10, "3G capped high-salt monomer": 0.10}
{"position": "A324", "domain": "SL3", "1G capped high-salt monomer": 0.12, "3G capped high-salt monomer": 0.17}
{"position": "A326", "domain": "none", "1G capped high-salt monomer": 0.85, "3G capped high-salt monomer": 0.92}
{"position": "A336", "domain": "AUG", "1G capped high-salt monomer": 0.87, "3G capped high-salt monomer": 0.63}
{"position": "C343", "domain": "AUG", "1G capped high-salt monomer": 0.37, "3G capped high-salt monomer": 0.70}
{"position": "C349", "domain": "none", "1G capped high-salt monomer": 0.33, "3G capped high-salt monomer": 0.28}
{"position": "A368", "domain": "none", "1G capped high-salt monomer": 1.00, "3G capped high-salt monomer": 0.96}
{"position": "A374", "domain": "none", "1G capped high-salt monomer": 0.47, "3G capped high-salt monomer": 0.48}
{"position": "A388", "domain": "none", "1G capped high-salt monomer": 0.08, "3G capped high-salt monomer": 0.08}
{"position": "A389", "domain": "none", "1G capped high-salt monomer": 0.17, "3G capped high-salt monomer": 0.15}
{"position": "A399", "domain": "none", "1G capped high-salt monomer": 0.30, "3G capped high-salt monomer": 0.16}
{"position": "A411", "domain": "none", "1G capped high-salt monomer": 0.83, "3G capped high-salt monomer": 0.95}
{"position": "A416", "domain": "none", "1G capped high-salt monomer": 0.53, "3G capped high-salt monomer": 0.45}
{"position": "A437", "domain": "none", "1G capped high-salt monomer": 0.04, "3G capped high-salt monomer": 0.02}

The last 2 entries again:

For A416 the result was 1G capped high-salt monomer 0.53; 3G capped high-salt monomer 0.45.
For A437 the result was 1G capped high-salt monomer 0.04; 3G capped high-salt monomer 0.02.

Source: Ye et al. 2022 (doi:10.1038/s41594-022-00746-2), supplementary data.